Assay results from patent US8962670B2, “Anti-cancer agents” (UWM Research Foundation, Inc., priority 2011, dated 2015).

Assays:
Test in all cases: NCI 60 panel GI50
Type in all cases: cell-based, human
786-0 (Renal Cancer) = test system: 786-0 (Renal Cancer)
A498 (Renal Cancer) = test system: A498 (Renal Cancer)
[1] = test system: A549/ATCC (Non-Small Cell Lung Cancer)
ACHN (Renal Cancer) = test system: ACHN (Renal Cancer)
CAKI-1 (Renal Cancer) = test system: CAKI-1 (Renal Cancer)
CCRF-CEM (Leukemia) = test system: CCRF-CEM (Leukemia)
COLO 205 (Colon Cancer) = test system: COLO 205 (Colon Cancer)
DU-145 (Prostate Cancer) = test system: DU-145 (Prostate Cancer)
HCT-116 (Colon Cancer) = test system: HCT-116 (Colon Cancer)
HCT-15 (Colon Cancer) = test system: HCT-15 (Colon Cancer)
HL-60(TB) (Leukemia) = test system: HL-60(TB) (Leukemia)
[2] = test system: HOP-92 (Non-Small Cell Lung Cancer)
LOX IMVI (Melanoma) = test system: LOX IMVI (Melanoma)
M14 (Melanoma) = test system: M14 (Melanoma)
MCF7 (Breast Cancer) = test system: MCF7 (Breast Cancer)
[3] = test system: MDA-MB-468 (Breast Cancer)
MOLT-4 (Leukemia) = test system: MOLT-4 (Leukemia)
[4] = test system: NCI-H23 (Non-Small Cell Lung Cancer)
[5] = test system: NCI-H460 (Non-Small Cell Lung Cancer)
[6] = test system: NCI-H522 (Non-Small Cell Lung Cancer)
NCI/ADR-RES (Ovarian) = test system: NCI/ADR-RES (Ovarian)
PC-3 (Prostate Cancer) = test system: PC-3 (Prostate Cancer)
RPMI-8226 (Leukemia) = test system: RPMI-8226 (Leukemia)
RXF 393 (Renal Cancer) = test system: RXF 393 (Renal Cancer)
SF-268 (CNS Cancer) = test system: SF-268 (CNS Cancer)
SF-295 (CNS Cancer) = test system: SF-295 (CNS Cancer)
SF-539 (CNS Cancer) = test system: SF-539 (CNS Cancer)
SK-OV-3 (Ovarian) = test system: SK-OV-3 (Ovarian)
SNB-19 (CNS Cancer) = test system: SNB-19 (CNS Cancer)
SNB-75 (CNS Cancer) = test system: SNB-75 (CNS Cancer)
SR (Leukemia) = test system: SR (Leukemia)
SW-620 (Colon Cancer) = test system: SW-620 (Colon Cancer)
T-47D (Breast Cancer) = test system: T-47D (Breast Cancer)
U251 (CNS Cancer) = test system: U251 (CNS Cancer)
UACC-62 (Melanoma) = test system: UACC-62 (Melanoma)
UO-31 (Renal Cancer) = test system: UO-31 (Renal Cancer)

OB(O)c1ccc(N(CCCl)CCCl)cc1
GI50 (786-0 (Renal Cancer)): 4.04 µM | GI50 (A498 (Renal Cancer)): 3.43 µM | GI50 [1]: 0.89 µM | GI50 (ACHN (Renal Cancer)): 1.75 µM | GI50 (CAKI-1 (Renal Cancer)): 1.44 µM | GI50 (CCRF-CEM (Leukemia)): 3.27 µM | GI50 (COLO 205 (Colon Cancer)): 7.26 µM | GI50 (DU-145 (Prostate Cancer)): 4.89 µM | GI50 (HCT-116 (Colon Cancer)): 9.37 µM | GI50 (HCT-15 (Colon Cancer)): 9.46 µM | GI50 (HL-60(TB) (Leukemia)): 2.88 µM | GI50 [2]: 10.5 µM | GI50 (LOX IMVI (Melanoma)): 3.13 µM | GI50 (M14 (Melanoma)): 4.77 µM | GI50 (MCF7 (Breast Cancer)): 1.89 µM | GI50 [3]: 0.51 µM | GI50 (MOLT-4 (Leukemia)): 2.9 µM | GI50 [4]: 3.36 µM | GI50 [5]: 0.23 µM | GI50 [6]: 3.53 µM | GI50 (NCI/ADR-RES (Ovarian)): 2.69 µM | GI50 (PC-3 (Prostate Cancer)): 15.1 µM | GI50 (RPMI-8226 (Leukemia)): 8.59 µM | GI50 (RXF 393 (Renal Cancer)): 2.55 µM | GI50 (SF-268 (CNS Cancer)): 4.72 µM | GI50 (SF-295 (CNS Cancer)): 1.36 µM | GI50 (SF-539 (CNS Cancer)): 3.35 µM | GI50 (SK-OV-3 (Ovarian)): 3.81 µM | GI50 (SNB-19 (CNS Cancer)): 8 µM | GI50 (SNB-75 (CNS Cancer)): 3.21 µM | GI50 (SR (Leukemia)): 0.48 µM | GI50 (SW-620 (Colon Cancer)): 8.39 µM | GI50 (T-47D (Breast Cancer)): 6.29 µM | GI50 (U251 (CNS Cancer)): 3.49 µM | GI50 (UACC-62 (Melanoma)): 4.71 µM | GI50 (UO-31 (Renal Cancer)): 6.05 µM
